The target in the experiment is S1 component of the furin-cleaved SARS-CoV-2 spike (SARS-CoV-2) (UniProt P0DTC2). Put plainly: cryo-EM structure.

This passage reports stoichiometry N results from paper PMC7116727.

In general, stoichiometry N refers to a count of units in the complex or per binding partner.

Substance “S1 component of the furin-cleaved SARS-CoV-2 spike (from UniProt P0DTC2 14-685) (domain or fragment)” returned a stoichiometry N of 3.
